Earlier results, collected in patent US20060148895A1, “New composition use and method” (priority 2002, published 2006).

Details: concentrated, cited from earlier work

Structure (SMILES): CC(O)CO (centres unmarked) [Propylene glycol]
- Effect on polycarbonate (7 days of constant exposure at 50° C.): some effect
- Damage on polycarbonate (30 days of constant exposure at 20° C.): little or no damage
